Molecules are shown by their SMILES.

The test system of this test is Male Sprague-Dawley rats. Put plainly: Respiratory depression assay. To be noted: rat, fentanyl 3 mg/kg SC then Compound B-15 30 mg/kg SC, plethysmograph, FIG. 2.

`CN(C)[C@H](CNC(=O)[C@@H]1C[C@]1(C)c1ccccc1)Cc1ccc(O)cc1Cl` [Compound B-15, (1R,2S)—N—((S)-3-(2-chloro-4-hydroxyphenyl)-2-(dimethylamino)-propyl)-2-methyl-2-phenylcyclopropane-1-carboxamide]: the “effect on the respiratory depression of fentanyl (minute volume)” value is given as “blocks”.
